Data published in paper PMC7894572 (Chemmedchem, 2020).
Counter-ions that a name gives are not always drawn.

Molecular target: SARS‐CoV PL^pro (Severe acute respiratory syndrome coronavirus, UniProt P0C6X7)
Test: biochemical

Cc1ccc(N)cc1C(=O)N[C@H](C)c1cccc2ccccc12 [Compound 2 b, (R )‐5‐Amino‐2‐methyl‐N‐[1‐(naphth‐1‐yl)ethyl]benzamide hydrochloride, reference compound]
IC50: 1100 nM
